Measured values reported in PMC10764798, “A natural biogenic nanozyme for scavenging superoxide radicals” (Nature Communications, 2024).

Biological target: the molecule itself
Assay: negative-stain TEM and DLS; purified biomineralized ferritin, 0.1 mg/mL; stained with 1% uranyl acetate, JEM-1400 80 kV TEM; DLS at 25 °C; assembly of the subunits into the protein cage

B1: light chain ferritin from Homo sapiens (natural protein, UniProt P02792 1-175, looked up)
chain: MSSQIRQNYSTDVEAAVNSLVNLYLQASYTYLSLGFYFDRDDVALEGVSHFFRELAEEKREGYERLLKMQNQRGGRALFQDIKKPAEDEWGKTPDAMKAAMALEKKLNQALLDLHALGSARTDPHLCDFLETHFLDEEVKLIKKMGDHLTNLHRLGGPEAGLGEYLFERLTLKHD
notes: Homopolymer cage; also called LFn; source: E. coli BL21(DE3), pet22b, ferrous salt added to the medium (biomineralized), purified; copies: 24
binding result: binds
